A mixed list of measured activities; the numbers were collected in NIAID ChemDB.

All rows: tests in culture; organism: Hepatitis C virus; endpoint: EC50

a–b is a range or a potency band.

CC1CCC(C(=O)N(c2cc(-c3ccc(NC(=O)c4ccccn4)nc3)sc2C(=O)O)C(C)C)CC1 ; strain or isolate: 1b ; method: replicon ; value: <0.5 µM
O=C(NS(=O)(=O)c1ccccc1)c1ccc2c(C3CCCCC3)c3n(c2c1)CC(C(=O)N1CCOCC1)Cc1ccccc1-3 ; method: replicon ; cell line: Huh7 ; value: 0.01–1 µM
NC(=S)Nc1cccc(OCCCCCOc2cccc3[nH]ccc23)c1 ; method: reporter gene / fluorescence ; cell line: Ava5-EG(delta4AB)SEAP ; value: 0.001–1 µM
O=C(O)c1c(-c2ccc[nH]c2=O)c2c3c(ccc2n1Cc1ccccc1F)OCCO3 ; method: replicon ; value: 1–10 µM
CNC(=O)c1c(-c2ccc(F)cc2)oc2cc(NC3=C(C)NOC3C)c(OC(C)C)cc12 ; method: replicon ; cell line: Huh7 ; value: >30 µM
O=C(Nc1ccc(C2SC(=Nc3cccc(F)c3)N(Cc3ccco3)C2=O)cc1)[C@H]1CCCN1C(=O)Cc1ccc(Cl)cc1 ; method: replicon ; cell line: Huh7 ; value: 0.1–1 µM
CCCCCCCCOc1ccc(N(C(=O)C(N)=O)c2nc(-c3cccnc3)cs2)cc1C(F)(F)F ; value: <1 µM
Cc1cccc(Cn2c(C(=O)NS(C)(=O)=O)c(-c3ccc[nH]c3=O)c3c4occc4c(F)cc32)c1F ; method: replicon ; value: <0.5 µM
COC(=O)c1ccc2c(C3CCCCC3)c3n(c2c1)CC(=O)N3c1ccccc1 ; method: replicon ; cell line: Huh7 ; value: >10 µM
COc1ccccc1OCCCCCOc1cccc(NC(N)=S)c1 ; method: reporter gene / fluorescence ; cell line: Ava5-EG(delta4AB)SEAP ; value: 0.001–1 µM
CCOP(=O)(CCNc1nc(NCC(F)(F)F)c2nc(-c3ccc(F)cc3)ccc2n1)OCC ; method: replicon ; value: <0.1 µM
C[C@@H](C(=O)N1CCC[C@@H]1C(=O)Nc1ccc(C2SC(=Nc3ccc(N4CCOCC4)cc3)N(Cc3ccccn3)C2=O)cc1)c1ccccc1 ; method: replicon ; cell line: Huh7 ; value: <0.1 µM
CCOc1nc(NCc2ccc(CS(=O)(=O)NC)cc2)nc2ccc(-c3ccc(F)cc3)nc12 ; method: replicon ; value: <0.1 µM
CNC(=O)c1c(-c2ccc(F)cc2)oc2cc(N(C)S(C)(=O)=O)c(OCc3ccc(F)cc3F)cc12 ; method: replicon ; cell line: Huh7 ; value: <1 µM
CCCCCN(C)c1ccc(N(C(=O)COC(C)=O)c2nc(-c3cccnc3)cs2)cc1C(F)(F)F ; value: <1 µM
C[C@@H](NC(=O)OCc1ccccc1)C(=O)Nc1cccc(C2SC(=Nc3cccc(F)c3)N(Cc3ccco3)C2=O)c1 ; method: replicon ; cell line: Huh7 ; value: 1–5 µM
CC1CCC(C(=O)N(c2cc(-c3ccc(NC(=O)c4ccn(C)n4)cc3)sc2C(=O)O)C(C)C)CC1 ; strain or isolate: 1b ; method: replicon ; value: <0.5 µM
CC(C)C(=O)Nc1ccc(-c2ccc3nc(N)nc(NCCS(C)(=O)=O)c3n2)cc1 ; method: replicon ; cell line: Huh7 ; value: <0.3 µM
O=C(O)c1ccc2c(C3CCCCC3)c3n(c2c1)CCCc1[nH]cnc1-3 ; method: replicon ; cell line: Huh7 ; value: >10 µM
CNC(=O)c1c(-c2ccc(F)cc2)oc2cc(NC(C)=O)c(OC(C)C)cc12 ; method: replicon ; cell line: Huh7 ; value: <10 µM
CCOc1nc(NCc2ccc(S(N)(=O)=O)cc2)nc2ccc(-c3ccc(NC(N)=O)cc3)nc12 ; method: replicon ; value: <0.1 µM
C[C@@H](NC(=O)OCc1ccccc1)C(=O)Nc1ccc(C2SC(=Nc3cccc4ccncc34)N(Cc3ccco3)C2=O)cc1 ; method: replicon ; cell line: Huh7 ; value: <0.1 µM
CS(=O)(=O)NC(=O)c1c(-c2ccc[nH]c2=O)c2c3occc3c(F)cc2n1Cc1cc(Cl)nc2ccccc12 ; method: replicon ; value: 0.5–1.5 µM
COC(=O)/C=C/c1ccc(NC(=O)C2(NC(=O)c3ccc4c(C5CCCCC5)c5n(c4c3)CC(=O)Cc3ncccc3-5)CCCC2)cc1 ; method: replicon ; cell line: Huh7 ; value: 0.01–1 µM
CCOC(=O)c1c(-c2ccccc2F)c2c3c(C)c(C)[nH]c3ccc2n1Cc1ccccc1 ; method: replicon ; value: >1.5 µM
CC1CCC(C(=O)N(c2cc(-c3ccc(NC(=O)c4cnccn4)nc3)sc2C(=O)O)C(C)C)CC1 ; strain or isolate: 1a ; method: replicon ; value: <0.5 µM
NC(=O)c1ccc(-c2ccc3nc(NCc4ccc(S(N)(=O)=O)cc4)nc(NC4CC4)c3n2)cc1 ; method: replicon ; value: <0.1 µM
CNC(=O)c1c(-c2ccc(F)cc2)oc2cc(C)c(OC(C)C(=O)O)cc12 ; method: replicon ; cell line: Huh7 ; value: >30 µM
CS(=O)(=O)N(CCO)c1cccc(-c2ccc3nc(NCc4ccc(S(N)(=O)=O)cc4)nc(NCC(F)(F)F)c3n2)c1 ; method: replicon ; value: <0.1 µM
CC(C)(CCOc1ccccc1)CCOc1cccc(NC(N)=S)c1 ; method: reporter gene / fluorescence ; cell line: Ava5-EG(delta4AB)SEAP ; value: 0.001–1 µM
CS(=O)(=O)NC(=O)c1c(-c2ccc[nH]c2=O)c2c3occc3ccc2n1Cc1ccccc1Cl ; method: replicon ; value: <0.5 µM
O=C(O)/C=C/c1ccc(NCC2(NC(=O)c3ccc4c(C5CCCCC5)c5n(c4c3)CC(C(=O)N3CCN(c4ccncc4)CC3)Cc3ccccc3-5)CCCC2)cc1 ; method: replicon ; cell line: Huh7 ; value: 0.01–1 µM
CC1CCC(C(=O)N(c2cc(-c3ccc(NC(=O)c4cscn4)cc3)sc2C(=O)[O-])C(C)C)CC1.NC(N)=[NH+]CCCC(N)C=O ; strain or isolate: 1b ; method: replicon ; value: <0.5 µM
CS(=O)(=O)NC(=O)c1c(-c2ccc[nH]c2=O)c2c3c(ccc2n1Cc1ccccc1F)CCCO3 ; method: replicon ; value: <1 µM
CCCCCOc1ccc2c(c1)[nH]c(=S)n2-c1nc(-c2cccnc2)cs1 ; value: >10 µM
NC(=S)Nc1cccc(OCCCCCOc2ccc(C(F)(F)F)cc2)c1 ; method: reporter gene / fluorescence ; cell line: Ava5-EG(delta4AB)SEAP ; value: 0.001–1 µM
CC1CCC(C(=O)N(c2cc(-c3ccc(NC(=O)c4ccccn4)cc3)sc2C(=O)O)C(C)C)CC1 ; strain or isolate: 1b ; method: replicon ; value: <0.5 µM
COc1c(-c2ccc3cc(NS(C)(=O)=O)ccc3c2)cc(-n2ccc(=O)[nH]c2=O)cc1C(C)(C)C ; strain or isolate: genotype 1a H77 ; method: luciferase ; conditions: 0% human plasma ; value: 0.0077 µM
Fc1ccc(CNc2nc(N[C@@H]3CCOC3)c3nc(-c4ccc(F)cc4)ccc3n2)cc1 ; method: replicon ; value: <0.1 µM
CCNC(=S)Nc1ccc2c(c1)Cc1cc(Br)ccc1-2 ; method: reporter gene / fluorescence ; cell line: Ava5-EG(delta4AB)SEAP ; value: 0.001–1 µM
CNC(=O)c1c(-c2ccc(F)cc2)oc2cc(C(C)(C)O)c(C)cc12 ; method: replicon ; cell line: Huh7 ; value: <10 µM
CCOc1nc(NCc2ccc(F)cc2)nc2ccc(-c3cccc(NS(=O)(=O)CCN4CCCC4)c3)nc12 ; method: replicon ; value: <0.1 µM
CN(C(=O)c1ccc2c(C3CCCCC3)c3n(c2c1)CCCc1ccccc1-3)C1(C(=O)O)CCCC1 ; method: replicon ; cell line: Huh7 ; value: >10 µM
C[C@H](O)C(=O)Nc1ccc(-c2ccc3nc(NCc4ccc(S(N)(=O)=O)cc4)nc(NCC(F)(F)F)c3n2)cc1 ; method: replicon ; value: <0.1 µM
COc1ccc2c(c1)C=C(C(=O)N1CCOCC1)Cn1c-2c(C2CCCCC2)c2ccc(C(=O)NS(=O)(=O)N(C)C)cc21 ; method: replicon ; cell line: Huh7 ; value: 0.01–1 µM
O=C(Nc1ccc(C2SC(=Nc3ccc(N4CCOCC4)cc3)N(Cc3ccccn3)C2=O)cc1)[C@H]1CCCN1C(=O)OCc1ccccc1 ; method: replicon ; cell line: Huh7 ; value: <0.1 µM
CNC(=O)c1c(-c2ccc(F)cc2)oc2cc(C(C)(C)O)c(OC(C)C)cc12 ; method: replicon ; cell line: Huh7 ; value: <1 µM
O=C(O)c1c(-c2ccc[nH]c2=O)c2c3occc3c(F)cc2n1Cc1ccc2nc[nH]c2c1 ; method: replicon ; value: <0.5 µM
CNC(=O)c1c(-c2ccc(F)cc2)oc2cc(N(C3CCC3)S(C)(=O)=O)c(OC(C)C)cc12 ; method: replicon ; cell line: Huh7 ; value: <1 µM
O=C(O)/C=C/c1ccc(NCC2(NC(=O)c3ccc4c(C5CCCCC5)c5n(c4c3)CC(C(=O)N3CCCC(O)C3)Cc3ccccc3-5)CCCC2)cc1 ; method: replicon ; cell line: Huh7 ; value: 0.01–1 µM
NC(=O)N(c1ccc(OCC2CCCCC2)c(F)c1)c1nc(-c2cccnc2)cs1 ; value: <1 µM
COC(=O)N[C@H](C(=O)N1CCC[C@H]1c1ncc(-c2ccc(-c3ccc(-c4cnc([C@@H]5CCCN5C(=O)[C@@H](NC(=O)OC)C(C)C)[nH]4)cc3)cc2)[nH]1)C(C)C ; strain or isolate: 1a ; method: luciferase ; changes: Q30H ; cell line: Lunet ; value: 0.0089 µM

Neighbouring rows are from separate reports. ECn: concentration that inhibits the pathogen or its effect by n%.